Compound potency records, mixed from different reports. Data source: NIAID ChemDB in PubChem.

All rows: whole-cell or culture tests; organism: Aspergillus niger; method: agar diffusion; endpoint: zone

Zone: diameter of growth inhibition. Neighbouring rows are from separate reports. An empty or dashed field is not shown.

SMILES,strain or isolate,dose,result
CN(Cc1cc2ccccc2nc1Cl)c1ccccc1,MTCC 281,200 µg/mL,13.24 mm
COc1ccc(C2CC(=O)C3=C(C2)OC2=C(C(=O)CC(c4ccc(OC)c(OC)c4)C2)C3c2cccc(C3C4=C(CC(c5ccc(OC)c(OC)c5)CC4=O)OC4=C3C(=O)CC(c3ccc(OC)c(OC)c3)C4)c2)cc1OC,ATCC 10949,20 µg/mL,0 mm
N=C1O/C(=C/c2ccc(Cl)cc2)C(=O)N1CCCNc1ccnc2cc(Cl)ccc12,-,400 µg/mL,38 mm
CC1(C)CCC2=C(C1=O)C(c1ccc(C3C4=C(CCC(C)(C)C4=O)OC4=C3C(=O)C(C)(C)CC4)cc1)C1=C(CCC(C)(C)C1=O)O2,ATCC 10949,140 µg/disc,7 mm
CSC1=NC(c2ccccc2O)C(C#N)=C(N)N1,MTCC 282,25 µg/mL,14 mm
COc1ccc(C2CC(=O)C3=C(C2)OC2=C(C(=O)CC(c4ccc(OC)c(OC)c4)C2)C3c2ccc(C3C4=C(CC(c5ccc(OC)c(OC)c5)CC4=O)OC4=C3C(=O)CC(c3ccc(OC)c(OC)c3)C4)cc2)cc1OC,ATCC 10949,140 µg/disc,0 mm
CCOC(=O)c1cc2ccccc2[nH]1,-,5000 µg/mL,1.3 mm
N=C1OCC(=O)N1CCCNc1ccnc2cc(Cl)ccc12,-,200 µg/mL,46 mm
CCCCOCc1c(O)cc2c(c1O)C(=O)c1ccccc1C2=O,-,13.3 µg/disc,0 mm
CC1(C)C=C2[C@H]3CC[C@@H]4[C@@]5(C)CC[C@H](O)C(C)(C)[C@@H]5CC[C@@]4(C)[C@]3(C)CC[C@@]2(C)CC1,UPCC 3701,30 mg/disc,0 mm
O=C(NN1C(=O)CSC1C1C(c2ccccc2)=Nc2ccc(Cl)cc21)N1c2ccccc2C=Cc2ccccc21,MTCC 281,500 µg/mL,12 mm
Cc1ccc2c(c1)C1(SCC(=O)N1c1c(C)n(C)n(-c3ccccc3)c1=O)C(=O)N2CCCCCCN1C(=O)C2(c3ccccc31)c1c(C)nn(-c3ccccc3)c1Oc1c2c(C)nn1-c1ccccc1,MTCC 282,100 µg/mL,16 mm
CC(=O)OC[C@H]1O[C@@H](Sc2n[nH]c(-c3cc4ccccc4[nH]3)n2)[C@H](OC(C)=O)[C@@H](OC(C)=O)[C@H]1OC(C)=O,-,5000 µg/mL,0 mm
COc1ccc(-c2nc(S(C)(=O)=O)nc(N)c2C#N)cc1,MTCC 282,25 µg/mL,18 mm
Cc1ccc2c(c1)C(C1SCC(=O)N1NC(=O)N1c3ccccc3C=Cc3ccccc31)C(c1ccccc1)=N2,MTCC 281,1000 µg/mL,5 mm
CCOCc1c(O)cc2c(c1O)C(=O)c1ccccc1C2=O,-,13.3 µg/disc,0 mm
CC1(C)CCC2=C(C1=O)C(c1cccc(C3C4=C(CCC(C)(C)C4=O)OC4=C3C(=O)C(C)(C)CC4)c1)C1=C(CCC(C)(C)C1=O)O2,ATCC 10949,140 µg/disc,7 mm
CC1=Cc2c(CO)c(O)c(C)c(O)c2CO1,IFM41398,100 µM,16 mm
CC(=O)OC[C@H]1O[C@@H](Sc2n[nH]c(-c3cc4ccccc4[nH]3)n2)[C@H](OC(C)=O)[C@@H](OC(C)=O)[C@@H]1OC(C)=O,-,5000 µg/mL,0 mm
CS(=O)(=O)c1nc(N)c(C#N)c(-c2ccccc2Cl)n1,MTCC 282,50 µg/mL,18 mm
CC1(C)C=C2C3CCC4[C@@]5(C)CC[C@H](OC(=O)/C=C/c6ccc(O)c(O)c6)C(C)(C)C5CC[C@@]4(C)[C@]3(C)CC[C@@]2(C)CC1,UPCC 3701,30 mg/disc,0 mm
C[C@H]1[C@H](O)[C@@H](C)/C=C/C=C/C=C/C=C/C=C/C=C/C=C/[C@H](O[C@@H]2O[C@H](C)[C@@H](O)[C@H](N)[C@@H]2O)C[C@@H]2O[C@](O)(C[C@@H](O)C[C@@H](O)CC[C@H](O)[C@@H](O)C[C@@H](O)CC(=O)O[C@H]1C)C[C@H](O)[C@H]2C(=O)O,-,10 µg/mL,10 mm
Cc1nn(-c2ccccc2)c2c1C1(C(=O)N(CCCCCCN3C(=O)C4(SCC(=O)N4c4c(C)n(C)n(-c5ccccc5)c4=O)c4ccccc43)c3ccccc31)c1c(C)nn(-c3ccccc3)c1O2,MTCC 282,100 µg/mL,16 mm
O=C(NN=CC1C(c2ccccc2)=Nc2ccccc21)N1c2ccccc2C=Cc2ccccc21,MTCC 281,1000 µg/mL,4 mm
O=C1CC(c2ccccc2)CC2=C1C(c1ccc(C3C4=C(CC(c5ccccc5)CC4=O)OC4=C3C(=O)CC(c3ccccc3)C4)cc1)C1=C(CC(c3ccccc3)CC1=O)O2,ATCC 10949,20 µg/mL,0 mm
COc1ccc(NCc2cc3ccccc3nc2Cl)cc1,MTCC 281,200 µg/mL,10.76 mm
COc1cc2c(cc1-c1cc(-c3ccccc3)nc(N)n1)CCC(C)(C)O2,-,100 µg/mL,13 mm
COc1c(CO)c(O)cc2c1C(=O)c1ccccc1C2=O,-,13.3 µg/disc,0 mm
COc1ccc(OC)c(-c2cc(-c3cc4c(cc3OC)OC(C)(C)CC4)nc(N)n2)c1,-,100 µg/mL,16 mm
Cc1ccc2c(c1)C1(C(=O)N2CCCCCCN2C(=O)C3(SCC(=O)N3c3c(C)n(C)n(-c4ccccc4)c3=O)c3cc(F)ccc32)c2c(C)nn(-c3ccccc3)c2Oc2c1c(C)nn2-c1ccccc1,MTCC 282,100 µg/mL,17 mm
CN(Cc1cc2ccccc2nc1Cl)c1ccc(F)cc1,MTCC 281,200 µg/mL,15.86 mm
Cc1ccc2c(c1)C1(C(=O)N2CCCCCCN2C(=O)C3(SCC(=O)N3c3c(C)n(C)n(-c4ccccc4)c3=O)c3cc(C)ccc32)c2c(C)nn(-c3ccccc3)c2Oc2c1c(C)nn2-c1ccccc1,MTCC 282,100 µg/mL,16 mm
COc1cc2c(cc1-c1cc(-c3ccc(N(C)C)cc3)nc(N)n1)CCC(C)(C)O2,-,100 µg/mL,15 mm
Clc1nc2ccccc2cc1CNCc1ccccc1,MTCC 281,200 µg/mL,15.69 mm
CSC1=NC(c2cccc([N+](=O)[O-])c2)C(C#N)=C(N)N1,MTCC 282,100 µg/mL,16 mm
COc1cc2c(cc1-c1cc(-c3ccc([N+](=O)[O-])cc3)nc(N)n1)CCC(C)(C)O2,-,100 µg/mL,22 mm

Repeating the final 4 entries:

SMILES,strain or isolate,dose,result
COc1cc2c(cc1-c1cc(-c3ccc(N(C)C)cc3)nc(N)n1)CCC(C)(C)O2,-,100 µg/mL,15 mm
Clc1nc2ccccc2cc1CNCc1ccccc1,MTCC 281,200 µg/mL,15.69 mm
CSC1=NC(c2cccc([N+](=O)[O-])c2)C(C#N)=C(N)N1,MTCC 282,100 µg/mL,16 mm
COc1cc2c(cc1-c1cc(-c3ccc([N+](=O)[O-])cc3)nc(N)n1)CCC(C)(C)O2,-,100 µg/mL,22 mm